Anti-infective test results gathered from many reports (values: NIAID ChemDB through PubChem).

Shared fields: growth or infection tests; organism: HIV-1; read by: MTT; read-out: EC50

ECn: concentration that inhibits the pathogen or its effect by n%. Neighbouring rows are from separate reports. An empty or dashed field is not shown.

SMILES	mutations	cell line	strain	result
CC(=O)Nc1cnc(Oc2c(Cl)cc(Cl)cc2Cl)nc1Nc1ccc(C#N)cc1	-	MT-4	IIIB	1.9 µM
Cn1c(-c2ccc(F)cc2)cc(N)nc1=O	-	MT-4	IIIB	>19.35 µM
Cc1nc(NC(=O)NC2CCCCCCC2)c(C)c(C(OC(C)(C)C)C(=O)O)c1-c1ccc2c(c1)CCCO2	-	MT-4	IIIB	0.014 µM
C#CCOCn1c(Cc2cccc(C(F)(F)F)c2)c(CC)c(=O)[nH]c1=O	-	MT-4	N119 (Y181C)	5.5 µM
CCc1c(C(=O)c2cccc(C#N)c2)n(Cc2cccc(C#N)c2)c(=O)[nH]c1=O	K103N + Y181C	MT-4	IIIB	44 µM
Cc1cc(/C=C/C#N)cc(C)c1Oc1nc(NC2CCN(Cc3ccc(C#N)cc3)CC2)nc2ccsc12	NNRTI-resistant (RT L100I)	MT-4	IIIB	0.00736 µM
C=C(C)COCn1c(Cc2c(F)c(F)cc(F)c2F)c(CC)c(=O)[nH]c1=O	-	MT-4	EFV-resistant (K103R V179D P225H)	>38 µM
O=C1/C(=C\c2ccc(O)cc2)N(CCc2cccs2)C(=S)N1CCc1cccs1	-	MT-4	IIIB	>13.25 µg/mL
CC(=O)Nc1cnc(Oc2c(Br)cc(Br)cc2Br)nc1Nc1ccc(C#N)cc1	-	MT-4	IIIB	20 µM
CCOP(=O)(OCC)C(Cc1ccccn1)N[C@@H](Cc1ccccc1)[C@H](O)CN(CC(C)C)S(=O)(=O)c1ccc(OC)cc1	-	MT-4	IIIB	>13.93 µg/mL
CCOCn1c(Cc2ccccc2)c(C(C)C)c(=O)[nH]c1=O	K103N + Y181C	MT-4	IIIB	>100 µM
O=c1sc2nc3c(c(=S)n2/c1=C/c1ccccc1)C1=C(CCC/C1=C\c1ccncc1)C(c1ccncc1)S3	-	T4	-	71.9 µM
COc1cc(/C=N/n2sc3ccccc3c2=O)ccc1O	EFV-resistant (K103 V179D P225H)	MT-4	-	>15 µM
Cc1cc(/C=C/C#N)cc(C)c1Oc1nc(NC2CCN(Cc3ccccc3C#N)CC2)nc2ccsc12	NNRTI-resistant (RT E138K)	MT-4	IIIB	0.0432 µM
N#Cc1ccc(Nc2nc(Oc3c(Cl)cc(Cl)cc3Cl)ncc2N)cc1	-	MT-4	IIIB	0.012 µM
Cc1cn([C@H]2C[C@H](N=[N+]=[N-])[C@@H](CO)O2)c(=O)[nH]c1=O	-	MT-4	Clinical isolate	0.0165 µg/mL
Cc1ccc2sn(/N=C/c3cccc(Cl)c3)c(=O)c2c1	Y181C	MT-4	-	>59 µM
CCOP(=O)(CN[C@@H](Cc1ccccc1)[C@H](O)CN(CC(C)C)S(=O)(=O)c1ccc(OC)cc1)OCC	-	MT-4	IIIB	7.77 µg/mL
Nc1ccn([C@H]2CC[C@@H](CO)O2)c(=O)n1	L100I	MT-4	-	0.33 µM
CCOC1N=C2C3=C(N=C(C)N2N1c1ccccc1)SC(c1ccncc1)C1=C3/C(=C/c2ccncc2)CCC1	-	T4	-	69.8 µM
Cc1cc(C(C)(O)c2ccc(C(C)(C)C)cc2)nc(Nc2ccc(C#N)cc2)n1	-	MT-4	IRLL98	7.206 µM
N#Cc1ccc(Nc2nc(Oc3c(Cl)cccc3Cl)ncc2NC(=O)C(F)(F)F)cc1	-	MT-4	RES056	>190 µM
C=C(C)COCn1c(Cc2cc(F)ccc2F)c(CC)c(=O)[nH]c1=O	-	MT-4	N119 (Y181C)	25 µM
Cc1cc(/C=C/C#N)cc(C)c1Oc1nc(NC2CCN(Cc3cccc(C#N)c3)CC2)nc2ccsc12	-	MT-4	RES056	0.115 µM
CC1=C2C[C@]3(O)[C@@H](C)CCC[C@@]3(C)C[C@@H]2OC1=O	-	MT-4	IIIB	0.002 µg/mL
COC(=O)[C@H](C)NC(O)(Oc1ccccc1)Oc1nc(N(C)C)nc(C(C)c2c(F)cccc2F)c1C	-	MT-4	-	0.007 µM
CCOC1N=C2C3=C(N=CN2N1c1ccccc1)SC(c1ccncc1)C1=C3/C(=C/c2ccncc2)CCC1	-	T4	-	70.2 µM
O=c1c2ccccc2sn1/N=C/c1ccccc1F	-	MT-4	-	>11 µM
CCCC(C(=O)O)c1c(C)nc2ccc(Cl)cc2c1-c1ccccc1	-	MT-4	-	2.35 µM
N#Cc1ccc(Nc2nc(Oc3c(Cl)cccc3Cl)ncc2N)cc1	-	MT-4	IIIB	0.023 µM
Cc1cc(/C=C/C#N)cc(C)c1Oc1nc(NC2CCN(Cc3ccc([N+](=O)[O-])cc3)CC2)nc2ccsc12	NNRTI-resistant (RT K103N)	MT-4	IIIB	0.00966 µM
N#C/C=C/c1cc(Cl)cc(Oc2ccc(OCCN3CCOCC3)cc2OCCn2ccc(=O)[nH]c2=O)c1	-	MT-2	IIIB	1.1 µM
Clc1ccc(Cn2cc(COc3nsnc3-c3cccc4ccccc34)nn2)cc1	-	MT-4	IIIB	>115 µM
Cc1cc(Br)cc(C)c1Oc1ncc(N)c(Nc2ccc(C#N)cc2)n1	-	MT-4	IIIB	0.046 µM
C=CCOCn1c(Cc2cc(C(F)(F)F)cc(C(F)(F)F)c2)c(CC)c(=O)[nH]c1=O	-	MT-4	EFV-resistant (K103R V179D P225H)	>100 µM
CCOC(=O)c1ccc(NC(=O)COc2nsnc2-c2cccc3ccccc23)c(Br)c1	-	MT-4	IIIB	>98 µM
C=CCNc1c(N=Nc2ccc(-c3ccc(F)cc3)cc2)c(N)nc(=O)n1C	-	MT-4	IIIB	>10.42 µM
CCOCn1c(Cc2cccc(C(F)(F)F)c2)c(C(C)C)c(=O)[nH]c1=O	-	MT-4	N119 (Y181C)	1.5 µM
CCNc1c(N=Nc2ccc(-c3ccc(OC)c(OC)c3)cc2)c(N)nc(=O)n1C	-	MT-4	IIIB	>23.13 µM
O=C1/C(=C\c2ccccc2)N(CCc2cccs2)C(=S)N1CCc1cccs1	-	MT-4	IIIB	>59.38 µg/mL
O=c1c2ccccc2sn1/N=C/c1ccccc1	-	MT-4	-	11 µM
COc1ccc(-c2c(C)nc(NC(=O)NC3CCCCC3)c(C)c2[C@H](OC(C)(C)C)C(=O)O)cc1	-	MT-4	IIIB	0.01 µM
Cc1cnc(Nc2ccc(C#N)cc2)nc1C(C)(O)c1ccc(C(C)(C)C)cc1	-	MT-4	IRLL98	1.246 µM
Cc1ccnc2c1NC(=O)c1cccnc1N2C1CC1	-	MT-4	IIIB	0.083 µg/mL
O=C(COc1nsnc1-c1cccc2ccccc12)Nc1ccc(Cl)cc1Cl	-	MT-4	IIIB	>116 µM
N#Cc1ccc(Nc2nc(Oc3c(Br)cc(Br)cc3Br)ncc2N)cc1	-	MT-4	RES056	4.9 µM
CCCOCn1c(C(F)c2cccc(C#N)c2)c(CC)c(=O)[nH]c1=O	Y181C	MT-4	IIIB	3 µM
O=c1c2ccccc2sn1/N=C/c1cccc(Cl)c1	-	MT-4	-	100 µM
C=CCNc1c(N=Nc2ccc(Cl)cc2)c(N)nc(=O)n1C	-	MT-4	IIIB	>14.23 µM
CC(=O)Nc1cnc(Oc2c(C)cc(C)cc2C)nc1Nc1ccc(C#N)cc1	-	MT-4	IIIB	9.3 µM
Cc1ccc(-c2c(C)nc3c(c2C(OC(C)(C)C)C(=O)O)CCCN3C(=O)NC2CCCCC2)cc1C	-	MT-4	IIIB	0.0075 µM
Cc1cc(C#N)cc(C)c1Oc1nc(NC2CCC(NCc3ccc([N+](=O)[O-])cc3)CC2)nc2ccsc12	NNRTI-resistant (RT E138K)	MT-4	IIIB	0.158 µM
O=c1c2ccccc2sn1/N=C/c1cccc(O)c1	EFV-resistant (K103 V179D P225H)	MT-4	-	>15 µM
N#Cc1ccc(Cn2cc(COc3nsnc3-c3cccc4ccccc34)nn2)cc1	-	MT-4	IIIB	>13 µM
Cc1ccc(-c2c(C)nc(Nc3cnc4ccccc4c3)c(C)c2C(OC(C)(C)C)C(=O)O)cc1C	-	MT-4	IIIB	0.012 µM
COc1ccc(-c2ccc(N=Nc3c(N)nc(=O)n(C)c3N(C)C)cc2)cc1OC	-	MT-4	IIIB	>10.42 µM
Cc1cc(C#N)cc(C)c1Oc1nc(Nc2ccc(C#N)cc2)nc(N)c1Br	K103N	MT-4	-	0.003 µM
O=C1/C(=C\c2ccc(Cl)cc2)N(CCc2cccs2)C(=S)N1CCc1cccs1	-	MT-4	IIIB	>103 µg/mL
COc1ccc(-c2c(C)nc(NC(=O)NC3CCCCC3)c(C)c2C(OC(C)(C)C)C(=O)O)cc1	-	MT-4	IIIB	0.01 µM
O=c1c2ccccc2sn1/N=C/c1ccccc1O	Y181C	MT-4	-	>18 µM
N#Cc1ccc(Nc2nc(Oc3c(Br)cc(Br)cc3Br)ncc2NC(=O)C(F)(F)F)cc1	-	MT-4	IIIB	0.035 µM
O=C1Nc2ccc(F)cc2[C@@]12C[C@@H]2c1ccccc1	-	MT-4	IIIB	0.92 µg/mL
COc1ccc(-c2ccc(N=Nc3c(N)nc(=O)n(C)c3N(Cc3ccccc3)Cc3ccccc3)cc2)cc1OC	-	MT-4	IIIB	>2.29 µM
C#CCOCn1c(Cc2cc(C(F)(F)F)cc(C(F)(F)F)c2)c(CC)c(=O)[nH]c1=O	K103N + Y181C	MT-4	A17	>100 µM
Cn1c(N2CCOCC2)c(N=Nc2ccc(Cl)cc2)c(N)nc1=O	-	MT-4	IIIB	>12.22 µM
Cc1ccc2sn(/N=C/c3ccc(F)cc3)c(=O)c2c1	K103N + Y181C	MT-4	-	>15 µM
Cc1cc(/C=C/C#N)cc(C)c1Oc1nc(NC2CCN(Cc3cccnc3)CC2)nc2ccsc12	-	MT-4	RES056	0.0125 µM
COc1ccc(Cn2cc(COc3nsnc3-c3cccc4ccccc34)nn2)cc1	-	MT-4	IIIB	>116 µM

Repeating the final 5 entries:

SMILES | mutations | cell line | strain | result
C#CCOCn1c(Cc2cc(C(F)(F)F)cc(C(F)(F)F)c2)c(CC)c(=O)[nH]c1=O | K103N + Y181C | MT-4 | A17 | >100 µM
Cn1c(N2CCOCC2)c(N=Nc2ccc(Cl)cc2)c(N)nc1=O | - | MT-4 | IIIB | >12.22 µM
Cc1ccc2sn(/N=C/c3ccc(F)cc3)c(=O)c2c1 | K103N + Y181C | MT-4 | - | >15 µM
Cc1cc(/C=C/C#N)cc(C)c1Oc1nc(NC2CCN(Cc3cccnc3)CC2)nc2ccsc12 | - | MT-4 | RES056 | 0.0125 µM
COc1ccc(Cn2cc(COc3nsnc3-c3cccc4ccccc34)nn2)cc1 | - | MT-4 | IIIB | >116 µM